Results of unrelated studies side by side (data: NIAID ChemDB).

All rows: toxicity to cultured cells; cells: CEM; measure: CC50

CCn: concentration that lowers growth or viability of the cells by n%. Conditions beyond the fields shown may differ between rows. Two numbers with a dash give a range or band.

compound | value
OC[C@H]1CC(n2cnc3c(NC4CC4)ncnc32)C[C@@H]1CO | >200 µg/mL
CN1CCN(C(=O)c2ccc3c(=O)c4ccccc4[nH]c3c2)CC1 | 43.09 µM
CCCC1(Cc2ccc3ccccc3c2)CC(O)=C(Sc2ccccc2C)C(=O)O1 | 34.8 µM
O=S(=O)(Nc1nnc2c3ccccc3cnn12)c1ccc(F)cc1S | >200 µM
Cc1cn([C@H]2C[C@H](N=[N+]=[N-])[C@@H](COP(=O)(OCCC#N)OC3CCC4(C)C(=CCC5C4CCC4(C)C(C(C)CCCC(C)C)CCC54)C3)O2)c(=O)[nH]c1=O | >200 µM
C=CCOC(=O)c1cc(NC(=S)OC(C)C)ccc1Cl | 66.92 µM
COC(=O)[C@H](C)NP(=O)(OCC1C/C1=C/n1cnc2c(=O)[nH]c(N)nc21)Oc1ccccc1 | >103 µM
NS(=O)(=O)c1ccc(C(=O)Nc2ccccc2SSc2ccccc2NC(=O)c2ccc(S(N)(=O)=O)cc2)cc1 | 27 µM
S=C1N=C(Cl)C2(NN1)c1ccccc1-c1ccccc12 | >200 µM
CCCCN(C[C@@H](O)[C@H](Cc1ccccc1)NC(=O)[C@H](C)CS(C)(=O)=O)S(=O)(=O)c1ccccc1 | 133 µM
C=CCNC(=O)NC1=CSC2=NC(=O)C3(NN12)c1ccccc1-c1ccccc13 | 70 µM
CCCCCCCCC[n+]1ccc2cc(OC)c(OC)c3c2c1C=CN3 | <1 µM
COC(=S)Nc1ccc(Cl)c(C(=O)OC(C)C)c1 | 122 µM
COC(=O)c1ccccc1SSc1ccccc1C(=O)OC | 9.3 µM
Cc1cc(C)cc(Oc2c(C(C)C)c(=O)[nH]c(=O)n2CC2CC2)c1 | 27.4 µM
O=C1NC(=O)C(CSCc2ccc(Br)cc2)(CSCc2ccc(Br)cc2)N1 | >16 µM
CCCN1C=Cc2nccc3cc(OC)c(OC)c1c23 | 7.6 µM
CO/N=C(\C)COc1cc(NC(=S)OC(C)C)ccc1Cl | 16.93 µM
O=C1NC(=O)C(CSc2ccncc2)(CSc2ccncc2)N1 | >100 µM
Nc1ccn(C[C@H]2C[C@H]2CO)c(=O)n1 | >100 µM
CC(C)OC(=O)c1cc(NC(=S)c2ccsc2)ccc1Cl | 17 µM
CC(C)OC(=S)Nc1ccc(Cl)c(C(=O)OC2CCCC2)c1 | 13.75 µM
O=c1[nH]cnc2c1ncn2C[C@H]1C[C@H]1CO | >100 µM
CCOC(=O)COc1cc(NC(=S)OC(C)C)ccc1Cl | 124 µM
CCCC[n+]1ccc2cc(OC)c(OC)c3c2c1C=CN3 | 5.7 µM
COC(=O)c1cc(NC(=S)OC(C)C)ccc1Cl | 146 µM
COc1ccccc1C(=S)Nc1ccc(Cl)c(C(=O)OC(C)C)c1 | 14 µM
CCCN(C[C@@H](O)[C@H](Cc1ccccc1)NC(=O)[C@H](C)CS(C)(=O)=O)S(=O)(=O)c1ccccc1 | 438 µM
CC(C)OC(=O)c1cc(NC(=S)c2ccco2)ccc1Cl | 19 µM
O=C1NC(=O)C(CSCC2CCCCC2)(CSCC2CCCCC2)N1 | >8 µM
CCCCCCCCCCCCCC(=O)OCC/C(SS/C(CCOC(=O)CCCCCCCCCCCCC)=C(\C)N(C=O)Cc1cnc(C)nc1N)=C(/C)N(C=O)Cc1cnc(C)nc1N | >100 µM
CC(C)OC(=O)c1cc(NC(=O)OCC2CC2)ccc1Cl | 22.45 µM
Nc1ccc(NC(=O)c2ccccc2SSc2ccccc2C(=O)Nc2ccc(N)cc2)cc1 | 8 µM
O=S(=O)(Nc1nnc2c3ccccc3ccn12)c1ccc(F)cc1S | 109 µM
COc1ccc(S(=O)(=O)N(CC(C)C)C[C@@H](O)[C@H](Cc2ccccc2)NC(=O)[C@H](C)CS(C)(=O)=O)cc1OC | 77 µM
O=C1NC(=O)C(CSCCO)(CSCc2ccccc2)N1 | >34 µM
O=c1ccn([C@@H]2C[C@H](CO)C[C@H]2CO)c(=O)[nH]1 | >200 µg/mL
NS(=O)(=O)c1ccc(NC(=O)c2ccccc2CSc2ccccc2C(=O)Nc2ccc(S(N)(=O)=O)cc2)cc1 | >100 µM
O=C1NC(=O)C(CSCc2ccncc2)(CSCc2ccncc2)N1 | >100 µM
CCc1c(C(=O)c2cc(C)cc(C)c2)n(CCC2=CCCC2)c(=O)[nH]c1=O | >1090 µM
Cc1cn(C[C@H]2C[C@H]2CO)c(=O)[nH]c1=O | >100 µM
NC1=NNC2(C(=O)N1)c1ccccc1-c1ccccc12 | 75 µM
CC(=O)N[C@@H](Cc1cccc2ccccc12)C(=O)N[C@H](C(=O)N[C@@H](CC(C)C)[C@@H](O)CC(=O)N[C@@H](CC(C)C)C(=O)N[C@@H](Cc1ccccc1)C(N)=O)C(C)C | >129 µM
CSC(=Nc1ccc(Cl)c(C(=O)OC(C)C)c1)OC(C)C | 72.32 µM
O=C(c1cccc([N+](=O)[O-])c1)c1ccc2[nH]c(=O)sc2c1 | 4.8 µg/mL
O=C1NC(=S)NNC12c1ccccc1-c1ccccc12 | 44 µM
O=C1NC(=O)C(CSc2ccccc2)(CSc2ccccc2)N1 | >64 µM
NS(=O)(=O)c1ccc(NC(=O)c2ccccc2[N+](=O)[O-])cc1 | >100 µM
Cc1cc(C)cc(Oc2c(C(C)C)c(=O)[nH]c(=O)n2CCC2CCCC2)c1 | 17.6 µM
O=C(c1ccccc1)c1ccc2c(c1)oc(=O)n2CCN1CCCCC1 | 23 µg/mL
COC(=O)[C@H](C)NP(=O)(OC[C@H]1C/C1=C/n1cnc2c(OC)nc(N)nc21)Oc1ccccc1 | 4.4 µM
O=C1NC(=O)C(CSCc2ccccc2)(CSCc2ccccc2)N1 | >100 µM
O=C(NCc1ccccc1)c1ccccc1SSc1ccccc1C(=O)NCc1ccccc1 | 10 µM
O=C(Nc1ccc(Cl)c(C(=O)OC2CCCCC2)c1)c1ccccc1F | 84 µM
CC(C)Nc1nc2cc(Cl)c(Cl)cc2n1[C@H]1O[C@@H](CO)[C@H](O)[C@@H]1O | 35–72 µM
Cc1ccsc1C(=O)Nc1ccc(Cl)c(C(=O)OC2CCCCC2)c1 | 17 µM
CCCCCCCCCCCCCCCC[n+]1ccc2cc(OC)c(OC)c3c2c1C=CN3 | 1.8 µM
CCCCC(=O)c1ccc2c(c1)oc(=O)n2CCN1CCCCC1 | 26 µg/mL
C#CCOC(=O)c1cc(NC(=S)OC(C)C)ccc1Cl | 51.32 µM
Cc1occc1C(=S)Nc1ccc(Cl)c(OC(=O)OC(C)C)c1 | 75 µM
CC(C)CN(C[C@@H](O)[C@H](Cc1ccccc1)NC(=O)[C@H](C)CS(C)(=O)=O)S(=O)(=O)c1ccccc1 | 213 µM
CCOC(=O)c1cc(NC(=S)OC(C)C)ccc1Cl | 9.2 µM
CC(C)Nc1ncnc2c1ncn2C1C[C@H](CO)[C@@H](CO)C1 | >200 µg/mL
O=S(=O)(Nc1nnc2c3ccccc3cnn12)c1ccc(Cl)cc1S | >200 µM
CCC(C)OC(=O)c1cc(NC(=S)OC(C)C)ccc1Cl | 18.19 µM
Cc1ccsc1C(=S)Nc1ccc(Cl)c(C(=O)OC(C)C)c1 | 45 µM
O=C(c1cccc(F)c1)c1ccc2[nH]c(=O)oc2c1 | 9.6 µg/mL
O=C1N=C2SC=C(NC(=S)Nc3ccccc3)N2NC12c1ccccc1-c1ccccc12 | 66 µM
Nc1nc2c(ncn2COC(CO)CO)c(=O)[nH]1 | 35–72 µM
CCCCCC[n+]1ccc2cc(OC)c(OC)c3c2c1C=CN3 | 5.3 µM
CSc1ccc(NC(=S)OC(C)C)cc1C(=O)OC(C)C | >305 µM
CCc1c(Oc2cc(C)cc(C)c2)n(CCC2CC=CC2)c(=O)[nH]c1=O | >1120 µM
CC(C)CS[C@H]1C[C@@H](n2cnc3c(N)ncnc32)[C@H](O)[C@@H]1O | 156 µg/mL
CC(C)OC(=S)Nc1ccc(Cl)c(C(=O)OC(C)(C)C)c1 | 14.9 µM
C/C=C/COc1cc(NC(=S)c2ccn(C)c2C)ccc1Cl | 12 µM
CCC(CC)COC(=O)c1cc(NC(=S)OC(C)C)ccc1Cl | 18.16 µM
CC(C)OC(=O)c1cc(NC(=S)c2ccccc2N)ccc1Cl | 13 µM
O=C(NC1CC1)c1ccccc1SSc1ccccc1C(=O)NC1CC1 | 90 µM
CC(C)OC(=O)Oc1cc(NC(=S)OC(C)C)ccc1Cl | 226 µM
COc1cc2ccnc3c2c(c1O)N(C)C=C3 | 1.4 µM
O=C1NC(=O)C(CSCc2ccccc2)N1 | >100 µM

For reference, 12 entries again:

compound | value
CC(C)OC(=S)Nc1ccc(Cl)c(C(=O)OC2CCCC2)c1 | 13.75 µM
O=C(NCc1ccccc1)c1ccccc1SSc1ccccc1C(=O)NCc1ccccc1 | 10 µM
CC(=O)N[C@@H](Cc1cccc2ccccc12)C(=O)N[C@H](C(=O)N[C@@H](CC(C)C)[C@@H](O)CC(=O)N[C@@H](CC(C)C)C(=O)N[C@@H](Cc1ccccc1)C(N)=O)C(C)C | >129 µM
CCC(C)OC(=O)c1cc(NC(=S)OC(C)C)ccc1Cl | 18.19 µM
O=C(Nc1ccc(Cl)c(C(=O)OC2CCCCC2)c1)c1ccccc1F | 84 µM
Nc1ccn(C[C@H]2C[C@H]2CO)c(=O)n1 | >100 µM
CSc1ccc(NC(=S)OC(C)C)cc1C(=O)OC(C)C | >305 µM
CC(C)Nc1nc2cc(Cl)c(Cl)cc2n1[C@H]1O[C@@H](CO)[C@H](O)[C@@H]1O | 35–72 µM
Cc1cn([C@H]2C[C@H](N=[N+]=[N-])[C@@H](COP(=O)(OCCC#N)OC3CCC4(C)C(=CCC5C4CCC4(C)C(C(C)CCCC(C)C)CCC54)C3)O2)c(=O)[nH]c1=O | >200 µM
C/C=C/COc1cc(NC(=S)c2ccn(C)c2C)ccc1Cl | 12 µM
O=C(c1cccc([N+](=O)[O-])c1)c1ccc2[nH]c(=O)sc2c1 | 4.8 µg/mL
O=C1NC(=O)C(CSc2ccncc2)(CSc2ccncc2)N1 | >100 µM